Source: paper PMC12069340 (Frontiers in Cellular and Infection Microbiology, 2025)

Test: in vitro
Conditions: human, Relative Viability (%)

## CC[N+](CC)(CC)CCOc1cccc(OCC[N+](CC)(CC)CC)c1OCC[N+](CC)(CC)CC [Gallamine Triethiodide]
  viability at 20 µM: 103%
